The record followed here is patent US20030166028A1.

For this data set, the system named is FL-MEK1-A546 peptide.

As to trypsin, the Ratio 570/525 (trypsin .1 uM, 30 minutes at 37 C) came out at 0.63.
